A mixed list of measured activities; the numbers were collected in NIAID ChemDB.

Common to all: growth or infection tests; agent: Aspergillus niger; read-out: MIC

Rows are shuffled and stem from different studies. Blank or dashed fields: not listed here.

structure | method | strain | result
Cc1ccc(N2NOC(=O)C2S(=O)(=O)Nc2ccc(-n3c(-c4ccc([N+](=O)[O-])cc4)nc4ccccc4c3=O)cc2)cc1 | broth dilution | MTCC 282 | 500 µg/mL
COC(=O)Cn1[se]c2ccccc2c1=O | agar |  | 17 µg/mL
O=C(O)c1ccc(NC(=S)N/N=C/c2ccc(OO)cc2)cc1 | agar diffusion |  | 3.12 µM
COc1ccc(-c2cc(-c3ccc4oc(=O)c(-c5ccccc5)c(C)c4c3)nc3c2oc2ccccc23)cc1OC | broth dilution / turbidity | MTCC 282 | 500 µg/mL
COC(OC)C(C)n1[se]c2ccccc2c1=O | agar |  | 300 µg/mL
COc1ccc(-c2cc(-c3ccc4oc(=O)c(-c5ccccc5)c(C)c4c3)nc3c2CCc2ccccc2-3)cc1OC | broth dilution / turbidity | MTCC 282 | 1000 µg/mL
C/C(=N\NC(=S)Nc1ccc(C(=O)O)cc1)c1ccc(Cl)cc1 | agar diffusion |  | 2.84 µM
Cn1c(=O)cc(Oc2nc(Nc3ccc(C#N)cc3)nc(Nc3nc4ccc(Br)cc4s3)n2)c2ccccc21 | agar | MTCC 2825 | 50 µg/mL
C[C@@H]1[C@H](O)[C@@H](C)/C=C/C=C/CC/C=C/C=C/C=C/C=C/C(O[C@H]2O[C@H](C)[C@@H](O)[C@H](N)[C@@H]2O)CC2O[C@](O)(CC(O)C(O)CCC(O)CC(O)CC(O)CC(=O)O[C@H]1C)CC(O)C2C(=O)O | broth dilution / turbidity | MTCC 282 | 100 µg/mL
CCC(C)n1ncn(-c2ccc(N3CCN(c4ccc(OC[C@H]5CO[C@](Cn6cncn6)(c6ccc(Cl)cc6Cl)O5)cc4)CC3)cc2)c1=O | agar diffusion |  | 10 µg/mL
O=C(NO)c1ccc(NC(=S)N/N=C/c2ccc(O)cc2)cc1 | agar diffusion |  | 1.55 µM
Cc1c(-c2ccccc2)c(=O)oc2ccc(-c3cc(-c4ccc(Cl)cc4)c4c(n3)-c3ccccc3C4)cc12 | broth dilution / turbidity | MTCC 282 | 200 µg/mL
COc1ccc(-c2csc(NS(=O)(=O)C3C(=O)ONN3c3ccc(C)cc3)n2)cc1 | broth dilution | MTCC 282 | 1000 µg/mL
C/C(=N\NC(=S)Nc1ccc(C(=O)O)cc1)c1ccccc1 | agar diffusion |  | 3.13 µM
CC(C)n1[se]c2ccccc2c1=O | agar |  | 15 µg/mL
Cc1ccc(/C=N/NC(=S)Nc2ccc(C(=O)O)cc2)cc1 | agar diffusion |  | 1.59 µM
COc1ccc2nc(NS(=O)(=O)C3C(=O)ONN3c3ccc(C)cc3)sc2c1 | broth dilution | MTCC 282 | 1000 µg/mL
CCOC(Cn1[se]c2ccccc2c1=O)OCC | agar |  | 63 µg/mL
C[C@@H]1[C@H](O)[C@@H](C)/C=C/C=C/CC/C=C/C=C/C=C/C=C/C(O[C@H]2O[C@H](C)[C@@H](O)[C@H](N)[C@@H]2O)CC2O[C@](O)(CC(O)C(O)CCC(O)CC(O)CC(O)CC(=O)O[C@H]1C)CC(O)C2C(=O)O | broth dilution | MTCC 282 | 100 µg/mL
Cn1c(=O)cc(Oc2nc(Nc3ccc(C#N)cc3)nc(Nc3ccccn3)n2)c2ccccc21 | agar | MTCC 2825 | 500 µg/mL
COc1ccc(/C=N/NC(=S)Nc2ccc(C(=O)O)cc2)cc1 | agar diffusion |  | 2.96 µM
Cc1ccc(-c2cc(-c3ccc4oc(=O)c(-c5ccccc5)c(C)c4c3)nc3c2CCc2ccccc2-3)cc1 | broth dilution / turbidity | MTCC 282 | >1000 µg/mL
Cc1ccc(N2NOC(=O)C2S(=O)(=O)Nc2ccc(-n3c(-c4cccc(Cl)c4)nc4ccccc4c3=O)cc2)cc1 | broth dilution | MTCC 282 | 250 µg/mL
COc1ccc(/C=N/NC(=S)Nc2ccc(C(=O)NO)cc2)cc1OC | agar diffusion |  | 1.1 µM
Cc1ccc(N2NOC(=O)C2S(=O)(=O)Nc2nc3cc(F)ccc3s2)cc1 | broth dilution | MTCC 282 | 1000 µg/mL
O=c1c2ccccc2[se]n1CO | agar |  | 228 µg/mL
O=C(O)c1ccc(NC(=S)N/N=C/c2ccccc2O)cc1 | agar diffusion |  | 2.51 µM
Cn1c(=O)cc(Oc2nc(Nc3ccc(C#N)cc3)nc(Sc3nc4ccccc4s3)n2)c2ccccc21 | agar | MTCC 2825 | 50 µg/mL

Again, the opening 3 rows:

structure	method	strain	result
Cc1ccc(N2NOC(=O)C2S(=O)(=O)Nc2ccc(-n3c(-c4ccc([N+](=O)[O-])cc4)nc4ccccc4c3=O)cc2)cc1	broth dilution	MTCC 282	500 µg/mL
COC(=O)Cn1[se]c2ccccc2c1=O	agar		17 µg/mL
O=C(O)c1ccc(NC(=S)N/N=C/c2ccc(OO)cc2)cc1	agar diffusion		3.12 µM